Source: PMC2777304 (PLoS Pathogens, 2009)
Structures can show the parent of a compound that is named as a salt.

Assay: Quinacrine concentration in tissues by quantitative LC/MS/MS
Conditions: 40 mg/kg/day oral, 75 dpi

## CCN(CC)CCCC(C)Nc1c2ccc(Cl)cc2nc2ccc(OC)cc12 (centres unmarked) [quinacrine, Quinacrine dihydrochloride]
FVB[60–90] mice
  Concentration of quinacrine in the brain: 1 µM
MDR^0/0[60–90] mice
  Concentration of quinacrine in the brain: 100 µM
